Pooled drug test results. Numbers come from NIAID ChemDB, via PubChem.

All rows: tests in culture; agent: Cryptococcus neoformans; measure: MIC

Rows are shuffled and stem from different studies.

smiles	strain or isolate	method	value
Cc1ccc(-c2cc(-c3ccc(Cl)cc3)nc(/N=C3\C(=O)N(CN4CCCCC4)c4ccccc43)n2)cc1			19.53 µg/mL
C[C@@H](n1ccn(-c2ccc(OC(F)(F)C(F)F)cc2)c1=O)C(O)(Cn1cncn1)c1ccc(F)cc1F	TIMM1855		0.03 µg/mL
O=[N+]([O-])c1ccc2[nH]c3c4ccc(Cl)cc4nnc3c2c1			7.4 µM
OC(c1cc(-c2ccc(-c3ccccc3)cc2)nc2ccccc12)C1CCCCN1	ATCC 90013		1.5 µg/mL
CC(C)C(=O)CCC[C@H]1CO[C@@](Cn2cccc2)(c2ccc(F)cc2F)C1	IFM.40092		>100 µg/mL
COc1ccc2c(c1)-c1nc(OC)c(C#N)c(-c3ccc4c(c3)OCO4)c1CS2	Farwania		3 µg/mL
CCC(C)CC(C)CCCCCCCCC(=O)N[C@H]1C[C@@H](O)[C@H](NCCN)NC(=O)[C@@H]2[C@@H](O)CCN2C(=O)[C@H]([C@H](O)CCN)NC(=O)[C@H]([C@H](O)[C@@H](O)c2ccc(O)cc2)NC(=O)[C@@H]2C[C@@H](O)CN2C(=O)[C@H]([C@@H](C)O)NC1=O			16 µg/mL
C[C@@H](N1CCN(c2ccc(OC(F)(F)F)cc2)C1=O)C(O)(Cn1cncn1)c1ccc(F)cc1F	TIMM1740		0.03 µg/mL
COc1ccccc1/C=C1\CSc2ccccc2C1=O	Farwania		25 µg/mL
CCCCCCCCCC(=O)NC(CCCN)C(=O)NC(CCCN)C(=O)NC(CCCN)C(=O)NC(CCCN)C(=O)NC(CCCN)C(N)=O	ATCC 2344	broth dilution	>100 µg/mL
Cn1ccc2c(O)c(C(=O)/C=C/c3ccccc3)ccc21			25 µg/mL
COc1cc(C2C(C#N)=C(N)OC3=C2CSc2ccccc23)ccc1O	Farwania		3 µg/mL
Cc1ccccc1N1C(=O)C[C@@H](C)C1=O	ATCC 32264	broth dilution / turbidity	62.5 µg/mL
O=C1/C(=C/c2ccc(O)cc2)COc2ccccc21	25		6 µg/mL
Clc1ccc2c(c1)nnc1c3ccccc3[nH]c21			0.1 µM
CC[C@@H]1OC(=O)[C@H](C)C(=O)C(O)(CO)C/C(SC)=C/[C@@H](C)Cc2cccc1c2	ATCC90112		>64 µg/mL
C[C@@H](n1ccn(-c2ccc(OC(F)(F)F)cc2)c1=O)C(O)(Cn1cncn1)c1ccc(F)cc1F	TIMM1855		0.06 µg/mL
CC(C)C(=N)CCC=C1CO[C@@](Cn2ccnc2)(c2ccc(F)cc2F)C1	IFM.40092		3.14 µg/mL
N#CC1=C(c2ccccc2)C2=C(NC1O)c1ccccc1SC2	93/V		100 µg/mL
CCCCCOc1ccc(-c2ccc(-c3ccc(C(=O)N[C@H]4C[C@@H](O)[C@@H](O)NC(=O)[C@@H]5[C@@H](O)[C@@H](C)CN5C(=O)[C@H]([C@H](C)O)NC(=O)[C@H]([C@H](O)[C@@H](O)c5ccc(O)cc5)NC(=O)[C@@H]5C[C@@H](O)CN5C(=O)[C@H]([C@H](C)O)NC4=O)cc3)cc2)cc1	887.002		>2 µg/mL
Nc1scc2c1c(=O)oc1ccccc12	IP 90526	broth dilution	2 µg/mL
COC(=O)C1CCc2sccc2C1=O			50 µg/mL
CCCCCCCC(=O)NC(CCCN)C(N)=O	ATCC 2344	broth dilution	>100 µg/mL
N#CC1=C(N)OC2=C(CSc3ccc(Cl)cc32)C1c1ccc2c(c1)OCO2	93/V		12.5 µg/mL
CCCCCCCC(=O)NC(CCCN)C(=O)NC(CCCN)C(=O)NC(CCCN)C(=O)NC(CCCN)C(=O)NC(CCCN)C(N)=O	ATCC 2344	broth dilution	>100 µg/mL
Nc1[nH]c(=O)ncc1F	H59		8 µg/mL
Cc1ccc(-c2cc(-c3ccc(Cl)cc3)nc(/N=C3\C(=O)Nc4ccc(Cl)cc43)n2)cc1			39.06 µg/mL
CC(C)C(=O)CCC[C@H]1CO[C@@](Cn2ccnc2)(c2ccc(F)cc2F)C1	B42419		1.56 µg/mL
C[C@@H](N1CCN(c2ccc(OCC(F)(F)C(F)F)cc2)C1=O)C(O)(Cn1cncn1)c1ccccc1F	TIMM1740		<0.016 µg/mL
CCC(C)n1ncn(-c2ccc(N3CCN(c4ccc(OC[C@H]5CO[C@](Cn6cncn6)(c6ccc(Cl)cc6Cl)O5)cc4)CC3)cc2)c1=O	L3	broth dilution	2 µg/mL
O=[N+]([O-])c1ccc2[nH]c3c4ccccc4nnc3c2c1			1.6 µM
COc1c(O)c2c(=O)cc(OC)c3c4c(OC)cc(=O)c5c(O)c(OC)c6c(c(c1CC(C)(O)C6C(C)=O)c23)c54			>100 µg/mL
CCCCCCCCCCCCCCCC(=O)NC(CCCN)C(N)=O	ATCC 2344	broth dilution	>100 µg/mL
COc1ccc(/C=C2\COc3ccc(OC)cc3C2=O)cc1	93/V		25 µg/mL
O=c1c(O)c(-c2ccccc2)oc2c1ccc1sccc12			25 µg/mL
Cc1ccc(-c2cc(-c3ccc(Cl)cc3)nc(/N=C3\C(=O)N(CN(C)C)c4ccc(Br)cc43)n2)cc1			9.76 µg/mL
CC(=O)c1ccc2sccc2c1O			50 µg/mL
C[C@@H](N1CCN(c2ccc(F)cc2)C1=O)C(O)(Cn1cncn1)c1ccc(F)cc1F	TIMM1740		0.13 µg/mL
CC1C(=O)N(CCCc2ccccc2)C(=O)C1C	ATCC 32264	broth dilution / turbidity	125 µg/mL
O=C1/C(=C/c2ccc(Cl)cc2)CSc2ccccc21	Farwania		12.5 µg/mL
CCCCCCCCCCCCCCCCCC(=O)NC(CCCN)C(=O)NC(CCCN)C(=O)NC(CCCN)C(=O)NC(CCCN)C(=O)NC(CCCN)C(N)=O	ATCC 2344	broth dilution	3.1 µg/mL
C[C@@H](n1cnc2cc(Cl)ccc2c1=O)[C@](O)(Cn1cncn1)c1ccc(F)cc1F	Isolate 109.97		0.0098 µg/mL
OC(c1cc(C2CC3CCC2CC3)nc2c(Cl)cc(Cl)cc12)C1CCCCN1	ATCC90112		0.4 µg/mL
CCC(C)n1ncn(-c2ccc(N3CCN(c4ccc(OC[C@H]5CO[C@](Cn6cncn6)(c6ccc(Cl)cc6Cl)O5)cc4)CC3)cc2)c1=O	H99		0.008 µg/mL
COc1ccc(-c2c(C#N)c(OC)nc3c2CSc2ccc(Cl)cc2-3)cc1OC	25		6 µg/mL
C[C@H]1[C@H](O)[C@@H](C)/C=C/C=C/C=C/C=C/C=C/C=C/C=C/[C@H](O[C@@H]2O[C@H](C)[C@@H](O)[C@H](N)[C@@H]2O)C[C@@H]2O[C@](O)(C[C@@H](O)C[C@@H](O)CC[C@H](O)[C@@H](O)C[C@@H](O)CC(=O)O[C@H]1C)C[C@H](O)[C@H]2C(=O)O	TIMM0354		0.25 µg/mL
COc1ccc(C(=O)CC(=O)c2ccc3sccc3c2OC)cc1			6.25 µg/mL
COc1ccc(-c2c(C#N)c(OC)nc3c2CSc2ccc(Cl)cc2-3)cc1O	Farwania		6 µg/mL
C[C@@H]1CC(=O)N(CCc2ccccc2)C1=O	ATCC 32264	broth dilution / turbidity	62.5 µg/mL
COc1ccc(-c2c(C#N)c(OC)nc3c2CSc2ccc(OC)cc2-3)cc1	25		50 µg/mL
CC1CC(=O)N(c2ccc([N+](=O)[O-])cc2)C1=O	ATCC 32264	broth dilution / turbidity	125 µg/mL
CC(C)=C[C@H]1C[C@](C)(O)C2C3CCC4[C@@]5(C)CCC[C@](C)(O[C@H]6OC[C@H](O)[C@H](OC7O[C@H](CO)[C@@H](O)[C@H](O)[C@H]7O)[C@H]6O[C@H]6C[C@H](CO)[C@@H](O)[C@@H]6O)C5CC[C@@]4(C)[C@@]34CO[C@@]2(C4)O1			50 µg/mL
C[C@@H]1CC(=O)N(Cc2ccccc2)C1=O	ATCC 32264	broth dilution / turbidity	15.6 µg/mL
Cc1ccc(-c2cc(-c3ccc(Cl)cc3)nc(/N=C3\C(=O)N(CN4CCOCC4)c4ccc(Br)cc43)n2)cc1			39.06 µg/mL
C[C@@H](N1CCN(c2ccc(OCC(F)(F)C(F)F)cc2)C1=O)C(O)(Cn1cncn1)c1ccc(F)cc1F	TIMM1855		0.03 µg/mL
CC(C)C(=O)CCC[C@H]1CO[C@@](Cn2cncn2)(c2ccc(F)cc2F)C1	A.34144		12.5 µg/mL
COc1cc(NC(C)CCCN)c2nc(C(C)(C)C)ccc2c1Oc1cccc(C(F)(F)F)c1			5 µg/mL
Cc1ccc(-c2cc(-c3ccc(Cl)cc3)nc(/N=C3\C(=O)N(CN(C)C)c4ccccc43)n2)cc1			19.53 µg/mL
CCCCCCCC(=O)NC(CCCN)C(=O)NC(CCCN)C(N)=O	ATCC 2344	broth dilution	>100 µg/mL
COc1ccc(C2C(C#N)=C(N)OC3=C2CSc2ccccc23)cc1	Farwania		50 µg/mL
Cc1ccc(-c2cc(-c3ccc(Cl)cc3)nc(/N=C3\C(=O)Nc4ccccc43)n2)cc1			39.06 µg/mL
N#CC1=C(N)OC2=C(CSc3ccccc32)C1c1ccc(-c2ccccc2)cc1	93/V		50 µg/mL
C=C1/C=C(\C)[C@H](CC)OC(=O)[C@H](C)C(=O)C(O)(CO)C/C(C)=C/[C@@H](C)C1	MY2026		>200 µg/mL
CC1C(=O)N(CCc2ccccc2)C(=O)C1C	ATCC 32264	broth dilution / turbidity	125 µg/mL
CCC(C)CC(C)CCCCCCCCC(=O)N[C@H]1C[C@@H](O)[C@H](NCCN)NC(=O)[C@@H]2[C@@H](O)CCN2C(=O)[C@H]([C@H](O)CCN)NC(=O)[C@H]([C@H](O)[C@@H](O)c2ccc(O)cc2)NC(=O)[C@@H]2C[C@@H](O)CN2C(=O)[C@H]([C@@H](C)O)NC1=O	19 isolates		1 µg/mL

An empty or dashed field is not shown.